Measured values: article PMC12077194, “Structural basis for spermidine recognition and modulation of Acinetobacter baumannii multidrug efflux regulator AmvR” (mBio, 2025)
Construct, isoform or probe ends are uncertain for at least one entry.

What was measured:
[1] = test system: AmvR (Acinetobacter baumannii); experiment: competition with a labelled probe; conditions: unlabeled DNA 1 abolished the shift of FAM_DNA 1; EMSA: 100 mM HEPES-Na pH 8.0, 100 mM KCl, 50 mM MgCl2, 5% glycerol, 10 mM DTT, 10 mM EDTA, 0.1 mg/mL BSA, 30 min, room temperature; recombinant protein; protein details: His-MBP tag removed with TEV protease
[2] = test system: AmvR (Acinetobacter baumannii); experiment: DNase I footprinting; conditions: 18 uM AmvR, 10 mM MgCl2, 1 mM CaCl2, two protected palindromic regions (sequences in Fig. 2D only); footprinting: 10 mM HEPES-Na pH 8.0, 10 mM MgCl2, 1 mM CaCl2, 0.4 mM DTT, 100 mM KCl, 5% glycerol, room temperature (digestion 25 C); recombinant protein; protein details: His-MBP tag removed with TEV protease; label: 5'-FAM on strand 1
[3] = test system: AmvR (Acinetobacter baumannii); experiment: EMSA; conditions: 0.2 uM DNA, 50 mM MgCl2; EMSA: 100 mM HEPES-Na pH 8.0, 100 mM KCl, 50 mM MgCl2, 5% glycerol, 10 mM DTT, 10 mM EDTA, 0.1 mg/mL BSA, 30 min, room temperature; recombinant protein; protein details: His-MBP tag removed with TEV protease; label: 5'-FAM on strand 1

| Sequence | binding result [1] | binding result [2] | binding result [3] |
| --- | --- | --- | --- |
| AATCATTTCTCTGCGTTGATCGCGATTAAGATAGGCCATGTTTTTTTACCTGACTGAATTCGACACAAATTACATTAAAACTAAAAGTTGGACAAGTGTCCAGTTGTGTATATAATAACCATGATTTGAACACATGTCCAAGTTTTGGATATTGAAGAGCGTTATGCAAAAAAAATGGTTAATCCTGACAATTATCGTCCTCATTTATTTACCAGTTACGATTGATGCAACGGTAATGCATGTTGCAACACCATCTTTAAGTGCAGCATTGAATTTAACTGCCAATCAGCTTTTATGGATTATTGATATTTATTCACTGATTATGGCGGGTTTGATTTTGCCGATGGGTGCAC (double strand) [DNA 1 (unlabeled)] | binds | – | – |
| AATCATTTCTCTGCGTTGATCGCGATTAAGATAGGCCATGTTTTTTTACCTGACTGAATTCGACACAAATTACATTAAAACTAAAAGTTGGACAAGTGTCCAGTTGTGTATATAATAACCATGATTTGAACACATGTCCAAGTTTTGGATATTGAAGAGCGTTATGCAAAAAAAATGGTTAATCCTGACAATTATCGTCCTCATTTATTTACCAGTTACGATTGATGCAACGGTAATGCATGTTGCAACACCATCTTTAAGTGCAGCATTGAATTTAACTGCCAATCAGCTTTTATGGATTATTGATATTTATTCACTGATTATGGCGGGTTTGATTTTGCCGATGGGTGCAC (double strand) [FAM_DNA 1 (amvR-amvA intergenic region)] | – | binds | binds |
